Experimental data reported in publication PMC12658632, “Discovery of Sesamolin as a Potential Anti-Helicobacter pylori Agent by Virtual Screening against the Essential Response Regulator HsrA with In Vitro Evaluation” (ACS Omega, 2025).

Molecular target: T1, HsrA (UniProt O25684)
T1 sequence (looked up, limits assumed): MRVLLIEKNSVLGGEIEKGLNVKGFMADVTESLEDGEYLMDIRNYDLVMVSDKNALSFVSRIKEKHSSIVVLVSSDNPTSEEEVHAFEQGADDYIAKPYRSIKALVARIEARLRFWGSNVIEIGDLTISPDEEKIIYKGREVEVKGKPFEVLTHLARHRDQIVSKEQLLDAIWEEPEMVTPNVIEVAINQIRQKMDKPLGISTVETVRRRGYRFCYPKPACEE
Experiment: EMSA
Conditions: weak inhibition at 0.05 mM, stronger at 0.1-1 mM, EMSA binding buffer (Beyotime GS005, composition and pH not stated), 25 uL, 4 uM HsrA, 50 ng each DNA, 25 C 30 min, 5% native PAGE, 0.5x TBE, recombinant protein, label: none (NA-Red stain), probe letters rebuilt from the primers and the genome

Q: Does “GCCAAAACGCCTAAAGCCATGATAACCTTTTTCATCGTTTGTCTCCTCTACTTATCAAAATGATCTTAAAATGATACAATTACAAGTTTAAGTTTTGCTTAAAAATGAAGTGAAAATGAGAGAAATAAATATGATTTTATACATTCATATCCCCTTTTGTGAAAATAAATGCGGTTATTGCGCTTTCAA (double strand) [hp1227 promoter probe]” bind (coptisine (6) 0.05-1 mM)?
A: binds more weakly

Q: Does “GCCAAAACGCCTAAAGCCATGATAACCTTTTTCATCGTTTGTCTCCTCTACTTATCAAAATGATCTTAAAATGATACAATTACAAGTTTAAGTTTTGCTTAAAAATGAAGTGAAAATGAGAGAAATAAATATGATTTTATACATTCATATCCCCTTTTGTGAAAATAAATGCGGTTATTGCGCTTTCAA (double strand) [hp1227 promoter probe]” bind (sesamolin (3) 0.05-1 mM)?
A: binds more weakly

For at least one entry, the source does not settle the construct or the ends of the probe. A weaker result is weaker than the reference pair of the same experiment. Tags and fusion partners may be left off the protein sequences shown.
